According to patent US12099051B2 (priority 2022, dated 2024):
In brackets after ≈: the same amount, converted by molar mass. Like-named read-outs stand apart in the source and are kept apart here.

Assays:
[1] = system: Caenorhabditis elegans (N2 wild-type); details: for body length ratio: 25 μg/mL separate and joint; for EC50: growth and development
[2] = system: Caenorhabditis elegans mutant strain Daf-2 (e1370); assay: reproductive ability of mutant strain Daf-2 (e1370); assay type: in vivo; details: same concentration as N2
[3] = system: Caenorhabditis elegans mutant strain Daf-16 (mu86); assay: growth and development of mutant strain Daf-16 (mu86); assay type: in vivo; details: same concentration as N2
[4] = system: Caenorhabditis elegans mutant strain Daf-2 (e1370); assay: growth and development of mutant strain Daf-2 (e1370); assay type: in vivo; details: compared with N2 wild type
[5] = system: Caenorhabditis elegans mutant strain Daf-16 (mu86); assay: reproductive ability of mutant strain Daf-16 (mu86); assay type: in vivo; details: same concentration as N2
Caenorhabditis elegans = assay: oxidative stress (ROS, DCFH-DA fluorescence) of Caenorhabditis elegans; assay type: in vivo; details: 48 h exposure
[6] = system: Caenorhabditis elegans (N2 wild-type)

CCC(C)C1NC(=O)/C(=C(/C)O)C1=O (centres unmarked)
body length ratio ([1]; 48 h exposure): 59.16% | body length ratio ([1]; exposure for 24 h): 57.80% | concentration at which nematode's body length is significantly confined (P<0.001) ([1]; N2 wild-type, compared with blank group): 12.5 µg/mL | EC50 ([1]; exposing for 24 h): 32.42 µg/mL (≈ 164 µM) | EC50 ([1]; exposing for 48 h): 38.30 µg/mL (≈ 194 µM) | spawning rate of Daf-2 mutant strain compared with N2 [2]: no significant difference from N2 | body length ratio of Daf-16 mutant strain compared with N2 wild type [3]: higher body length ratio than the N2 wild type | effect of Daf-2 gene silencing on developmental toxicity [4]: does not slow down the developmental toxicity | spawning rate of Daf-16 mutant strain compared with N2 wild-type [5]: higher spawning rate than the N2 wild-type | relative fluorescence intensity ratio (ROS) (Caenorhabditis elegans; 12.5 μg/mL separate and joint): 129.26% | relative fluorescence intensity ratio (ROS) (Caenorhabditis elegans; 25 μg/mL separate and joint): 147.51% | spawning rate ([6]; 25 μg/mL separate and joint, 48 h exposure): 70.63% | concentration at which nematode's spawning rate is significantly confined (P<0.001) ([6]; N2 wild-type, compared with blank group, 48 h exposure): 12.5 µg/mL | EC50 ([6]; reproductive capacity, exposing for 48 h): 33.20 µg/mL (≈ 168 µM)
